Where two headings read alike, the source gives them in different places.
Tests used:
[1] = system: B054 arterial smooth muscle cells; conditions: 5 minute exposure; for protein synthesis, long-term: recovery period
[2] = system: BO54 (smooth muscle) cells; test: MTT assay of cellular metabolic activity; conditions: 24 hours exposure, 16-18 hours recovery period
[3] = system: M14 (melanoma) cells; test: MTT assay of cellular metabolic activity; conditions: 24 hours exposure, 16-18 hours recovery period
[4] = system: HT29 cells (colon carcinoma); test: MTT assay of cellular metabolic activity; conditions: 24 hours exposure, 16-18 hours recovery period
[5] = system: intimal smooth muscle cells; test: Intimal smooth muscle proliferation after balloon catheter trauma, single intra-artery infusion; conditions: score 1+ (minimal) to 4+ (maximal); 5 weeks after trauma; control treatments
[6] = system: A375 marker-positive cells; conditions: 5 minute exposure
[7] = system: HT29 marker-negative cells; conditions: 5 minute exposure
[8] = 3H-leucine over the next 4 hours

In the case of Roridin A, the “protein synthesis, long-term” value ([1]; 50ng/ml) is reported as 98 % of control, the “protein synthesis, long-term” value ([1]; 100ng/ml) is reported as 46 % of control and the “protein synthesis, long-term” value ([1]; 200ng/ml) is reported as 27 % of control. For the same substance, the “protein synthesis, short-term” value ([1]; 50ng/ml) was 90 % of control, the “protein synthesis, short-term” value ([1]; 100ng/ml) was 66 % of control and the “protein synthesis, short-term” value ([1]; 200ng/ml) was 60 % of control. For the same substance, the “concentration at which inhibitory effects on metabolic activity were observed” value [2] was > 10 ng/mL, the “concentration at which inhibitory effects on metabolic activity were observed” value [3] was > 10 ng/mL and the “concentration at which inhibitory effects on metabolic activity were observed” value [4] was > 10 ng/mL. The “INTIMAL SMC HYPERTROPHY* ave. (range)” value [5] was 4 (4), the “protein synthesis, short-term effect” value [6, 8] was “non-specifically inhibitory” and the “protein synthesis, long-term effect” value ([6]; 16-18 hour recovery period, then 4 hour 3H-leucine) was “manifest even after a 16-18 hour recovery period”. The “protein synthesis, short-term effect” value [7, 8] was “dose-response inhibition” and the “protein synthesis, long-term effect” value ([7]; 16-18 hours recovery period, then 4 hour 3H-leucine) was “still manifest after the 16-18 hours recovery period”.

Reference: patent EP1350523B1 (priority 1992, dated 1994)
